# Patent publication US20190062383A1, “Kv1.3 Antagonists and Methods of Use” (Janssen / Centocor, published 2019)
# Biological target: human Kv1.3 (human, UniProt P22001 1-575)
# Assay: cell-based or functional assay
binder,measurement,value
KV1N2 (OsK1-Fc fusion) (Fc fusion) GVIINVKCKISRQCLEPCKKAGMRFGKCMNGKCHCTPKGSGGGGSGGGGSGGGGSGGGGS,"Kv1.3 IC50, whole-cell patch clamp",0.3 nM
